A mixed list of measured activities; the numbers were collected in NIAID ChemDB.

Common to all: tests in culture; organism: HIV-1; endpoint: fold resistance

Fold resistance has wild type as its base. An empty or dashed field is not shown. Rows are shuffled and stem from different studies.

smiles	strain	cells	method	changes	result
CCc1c(Sc2cc(C)cc(C)c2)n(COCc2ccccc2)c(=S)[nH]c1=O	IIIB TIBO R82913-resistant (RT K103N)	CEM	syncytia	RT-K103N	18.3
O=C1Nc2ccc(F)c(F)c2[C@@](/C=C/C2CC2)(C(F)(F)F)N1	-	-	-	RT-K101E	<6.32
Cc1cc(S(N)(=O)=O)ccc1NC(=O)COc1ccc(Cl)cc1C(=O)c1cc(F)cc(C(F)(F)F)c1	HXB2	HeLa + HELA CD4+	β-galactosidase	RT-K103N	~1
CC(C)=CCOc1cc(NC(=S)c2ccsc2C)ccc1Cl	UC781-R (RT-Y181C)	CEM + CEM-SS	cytopathic effect / XTT	RT-Y181C	60
CCOCn1c(Sc2ccccc2)c(C(C)C)c(=O)[nH]c1=S	IIIB	CEM	syncytia	RT-Y188H	≥3330
CC(=O)c1ccc(C)cc1NC(C(N)=O)c1c(Cl)cccc1Cl	UC82-R (RT-Y181C)	CEM + CEM-SS	cytopathic effect / XTT	RT-Y181C	>100
C/C=C/CSc1cc(NC(=S)c2ccsc2C)ccc1Cl	NL4-3	CEM + CEM-SS	p24	RT-K101E	12
CC(C)=CCOc1cc(NC(=S)c2ccoc2C)ccc1Cl	NL4-3 (RT L100I)	CEM + CEM-SS	cytopathic effect / XTT	RT-L100I	66.7
CCc1c(Cc2cc(C)cc(C)c2)n(COCCO)c(=O)[nH]c1=O	IIIB	CEM	syncytia	RT-Y181I	89.3
Cc1cc(S(N)(=O)=O)ccc1NC(=O)COc1ccc(Cl)cc1C(=O)c1cc(Cl)cc(C#N)c1	HXB2	HeLa + HELA CD4+	β-galactosidase	RT-K103N P225H	~1
Cc1ccc(C2CC2)c(-c2ccc3c(c2)CCCO3)c1[C@H](OC(C)(C)C)C(=O)O	NL4-3	MT-4	luminescence	INSTI-resistant (IN-Y143R)	1
O=C1Nc2ccc(F)c(F)c2[C@@](C#CC2CC2)(C(F)(F)F)N1	-	-	-	RT-K103N	12.2
Cc1cc(C#N)cc(C(=O)c2cc(Cl)ccc2OCC(=O)Nc2cnc(S(N)(=O)=O)cc2C)c1	HXB2	HeLa + HELA CD4+	β-galactosidase	RT-K103N P225H	~1
CCC(=O)c1ccc(F)c([C@@H]2C[C@@H]2NC(=O)Nc2ccc(C#N)cn2)c1O	LAI	TZM-bl	β-galactosidase / luminescence	NNRTI-resistant (RT Y188H)	1.7
Cc1ccc(C2CC2)c(-c2cc(F)c3c(c2C)CCCO3)c1[C@H](OC1CC1)C(=O)O	NL4-3	MT-4	luminescence	INSTI-resistant (IN-Q148H)	1
CCOCn1c(Sc2ccccc2)c(CC)c(=O)[nH]c1=O	IIIB (TIBO 82150) (RT-L100I)	CEM	syncytia	RT-L100I	5.5
Cc1cc(S(N)(=O)=O)ccc1NC(=O)COc1ccc(Cl)cc1C(=O)c1cc(F)cc(C#N)c1	Nevirapine-resistant (RT Y181C)	MT-4	cytopathic effect / propidium iodide	RT-Y181C	~1
N#Cc1cc(Cl)cc(Oc2c(Br)ccc(CC(=O)Nc3ccc(S(N)(=O)=O)cc3Cl)c2F)c1	-	MT-4	-	K103N	1

Again, the opening 2 rows:

smiles	strain	cells	method	changes	result
CCc1c(Sc2cc(C)cc(C)c2)n(COCc2ccccc2)c(=S)[nH]c1=O	IIIB TIBO R82913-resistant (RT K103N)	CEM	syncytia	RT-K103N	18.3
O=C1Nc2ccc(F)c(F)c2[C@@](/C=C/C2CC2)(C(F)(F)F)N1	-	-	-	RT-K101E	<6.32